Anti-infective test results gathered from many reports (values: NIAID ChemDB through PubChem).

Common to all: cytotoxicity tests; cells: KB; endpoint: CC50

CCn is the concentration with n% toxicity to the cells. Neighbouring rows are from separate reports. Blank or dashed fields: not listed here.

structure | read by | result
COc1cc(C(=O)Oc2c(-c3ccc(Cl)cc3)oc3ccccc3c2=O)cc(OC)c1OC(C)=O |  | 6.5 µM
CCC[C@@H](OC(C)=O)C1=C(Br)/C(=C/Br)OC1=O |  | 0.5 µg/mL
OC[C@H]1O[C@@H](n2cnc3cc4cc(Cl)c(Cl)cc4nc32)[C@H](O)[C@@H]1O |  | >100 µM
CN1C=N[C@H](C(=O)O)C[C@]1(C)COC(=O)c1ccc[nH]1 |  | >20 µg/mL
OCCOCn1c(Cl)nc(Cl)c1Cl |  | 25 µM
OC[C@H]1O[C@@H](n2c(SCc3ccccc3)nc3nc4cc(Cl)c(Cl)cc4cc32)[C@H](O)[C@@H]1O |  | 40 µM
CC(C)=CC[C@H]1C[C@@]2(C[C@H]3CCC(C)(C)C=C3C)C(=O)[C@](C(=O)c3ccccc3)(C(=O)C3=C2OC(C)(C)CC3)C1(C)C | sulforhodamine / absorbance | >50 µM
OC[C@H]1O[C@@H](n2c(Br)nc(Br)c2Br)[C@H](O)[C@@H]1O |  | 65 µM
COc1cc(-c2ccccc2)c(OC)c(OC)c1O | sulforhodamine / absorbance | >50 µM
C/C(=C\CC[C@@H](C)C1CC[C@@]2(C)[C@@H]3CC[C@H]4C(C)(C)C(=O)CC[C@]4(C)[C@@]3(O)CC[C@]12C)C(=O)O |  | >40 µM
COc1ccc(-c2cc(OC)c(O)c(OC)c2O)cc1 | sulforhodamine / absorbance | 41.94 µM
OC[C@H]1O[C@@H](n2c(Br)nc(Br)c2Br)[C@@H](O)[C@@H]1O |  | 90 µM
[C-]#[N+][C@@]1(C)CC[C@H]2[C@H]3[C@H]4C(=CC[C@@H]31)CC(C)(C)C[C@@H]4C[C@@H]2C |  | >20 µg/mL
O=C1c2c(O)cc(O)cc2O[C@@H](c2ccc(O)cc2)[C@@H]1c1c(O)cc(O)c2c(=O)cc(-c3ccc(O)c(O)c3)oc12 | sulforhodamine / absorbance | >50 µM
C=C(C)[C@@H]1CC[C@]2(COC(C)=O)CC[C@]3(C)[C@H](CC[C@@H]4[C@@]5(C)CC[C@H](OC(C)=O)C(C)(C)[C@@H]5CC[C@]43C)[C@@H]12 |  | >20 µg/mL
COc1cc(C(=O)Oc2c(-c3ccc(Cl)cc3)oc3ccccc3c2=O)cc(OC)c1O |  | 26 µM
OC[C@H]1O[C@@H](n2c(Br)nc(Cl)c2Cl)[C@H](O)[C@@H]1O |  | >100 µM
O=C(Oc1c(-c2ccc(Cl)c(Cl)c2)oc2ccccc2c1=O)c1cc(O)c(O)c(O)c1 |  | 4.5 µM
OCC1OC(n2c(SCc3ccccc3)nc3nc4cc(Cl)c(Cl)cc4nc32)C(O)C1O |  | 20 µM
OC[C@H]1O[C@@H](n2c(Cl)nc3cc(Cl)c(Cl)cc32)[C@H](O)[C@@H]1O |  | >100 µM
COc1cc([C@@H]2c3cc4c(cc3[C@@H](O[C@@H]3O[C@@H]5CO[C@@H](C)O[C@H]5[C@H](O)[C@H]3O)[C@H]3COC(=O)[C@H]23)OCO4)cc(OC)c1O |  | 0.4 µM
C/C(=C\C=C\[C@@H](C)[C@H]1CC[C@@]2(C)C3CC[C@H]4C(C)(C)C(=O)CC[C@]4(C)[C@@]3(O)[C@@H](O)C[C@]12C)C(=O)O |  | >40 µM
COc1cc(C(=O)Oc2c(-c3ccc(Cl)cc3)oc3ccccc3c2=O)ccc1O |  | 20 µM
COc1cc(-c2ccccc2)c(O)c(OC)c1O | sulforhodamine / absorbance | >50 µM
O=c1c(O)c(-c2ccc(Cl)cc2)oc2ccccc12 |  | 9.4 µM
CC(C)(O)[C@H]1CC[C@]2(C)[C@H]3CC[C@@H]4[C@@]5(C)CCCC(C)(C)[C@@H]5[C@@H](O)C[C@@]4(C)[C@]3(C)CC[C@@H]12 |  | >20 µg/mL
OC[C@H]1O[C@@H](n2c(Cl)nc(Cl)c2Cl)[C@H](O)[C@@H]1O |  | >100 µM
COC(=O)/C(C)=C/C=C/[C@@H](C)C1CC[C@@]2(C)[C@@H]3CC[C@H]4C(C)(C)C(=O)CC[C@]4(C)C3=CC[C@]12C |  | 4.07 µM
OCCOCn1c(Br)nc(Cl)c1Cl |  | >100 µM
CC(=O)Oc1c(-c2ccc(Cl)c(Cl)c2)oc2ccccc2c1=O |  | 6.4 µM

For reference, 2 entries again:

structure	read by	result
CN1C=N[C@H](C(=O)O)C[C@]1(C)COC(=O)c1ccc[nH]1		>20 µg/mL
CC(C)=CC[C@H]1C[C@@]2(C[C@H]3CCC(C)(C)C=C3C)C(=O)[C@](C(=O)c3ccccc3)(C(=O)C3=C2OC(C)(C)CC3)C1(C)C	sulforhodamine / absorbance	>50 µM